Measured values from several laboratories, pooled; numbers as filed in NIAID ChemDB.

Shared fields: whole-cell or culture tests; agent: Candida albicans

A number after MIC or MFC names an inhibition level or a share of isolates.

structure	read-out	strain	method	value
C[C@H]1[C@H](O)[C@@H](C)/C=C/C=C/C=C/C=C/C=C/C=C/C=C/[C@H](O[C@@H]2O[C@H](C)[C@@H](O)[C@H](N)[C@@H]2O)C[C@@H]2O[C@](O)(C[C@@H](O)C[C@@H](O)CC[C@H](O)[C@@H](O)C[C@@H](O)CC(=O)O[C@H]1C)C[C@H](O)[C@H]2C(=O)O	MIC	ATCC11651		1 µg/mL
O=C(Nc1ccc2c(c1)Sc1ccccc1O2)c1ccc(Cl)cc1Cl	MIC	C316		5 µg/mL
CCCCCCCC(O)CC(=O)CCc1ccc(O)c(OC)c1	MIC	CN1A		750 µg/mL
Clc1ccc(COC(Cn2ccnc2)c2ccc(Cl)cc2Cl)c(Cl)c1	MFC	ATCC 10231		20 µg/mL
CCCCCC[C@H]1OC(=O)CNC(=O)[C@@H]([C@H](C)OC)NC(=O)[C@@H](CO)NC(=O)[C@H]([C@H](C)CC)NC(=O)[C@H](CC(C)C)N(C)C(=O)[C@@H]1C	MIC			>100 µg/mL
COc1cc(C(=O)OC2CC(C)=CCC3(C)CCC(O)(C(C)C)C23)ccc1O	MIC	SC5314		>50 µg/mL
Fc1ccc(C(CCn2ccnc2)Oc2ccc(Cl)cc2Cl)cc1	MFC50	20 strains		8 µg/mL
CCC(C)n1ncn(-c2ccc(N3CCN(c4ccc(OC[C@H]5CO[C@](Cn6cncn6)(c6ccc(Cl)cc6Cl)O5)cc4)CC3)cc2)c1=O	MIC90		broth dilution	0.016 µg/mL
O=[N+]([O-])c1ccc(S(=O)(=O)Nc2ccc3c(c2)Sc2ccccc2O3)cc1	MIC	C316		4 µg/mL
CCCCN(Cc1cn(Cc2cccc([N+](=O)[O-])c2)nn1)CC(O)(Cn1cncn1)c1ccc(F)cc1F	MIC80	Y0109		4 µg/mL
CC1=C[C@H](OCC(=O)c2ccc(O)cc2)[C@@H]2[C@](C)(CC[C@@]2(O)C(C)C)CC1=O	EC90		broth dilution	>50 µg/mL
CCCCCC[C@H]1OC(=O)CNC(=O)[C@@H](CC)NC(=O)[C@@H](CO)NC(=O)[C@H]([C@H](C)CC)NC(=O)[C@H](CC(C)C)N(C)C(=O)[C@@H]1C	MIC			>100 µg/mL
CCCC[C@@](O)(c1ccc(F)cc1)[C@](O)(Cn1cncn1)c1ccccc1Cl	MIC	KE-2		>100 µg/mL
CCC(C)n1ncn(-c2ccc(N3CCN(c4ccc(OC[C@H]5CO[C@](Cn6cncn6)(c6ccc(Cl)cc6Cl)O5)cc4)CC3)cc2)c1=O	Geometric mean MIC	8 strains		0.071 µg/mL
COc1ccc(C2=CC(C)OC2=O)cc1	MIC	ATCC 44859		>125 µM
c1ccc(-c2ccc(C(c3ccccc3)n3ccnc3)cc2)cc1	MIC	ATCC 10231		10 µg/mL
CCCCN(Cc1cn(Cc2ccc(Cl)cc2Cl)nn1)CC(O)(Cn1cncn1)c1ccc(F)cc1F	MIC80	Y0109		4 µg/mL
CC(=O)N1CCN(c2ccc(OC[C@H]3CO[C@](Cn4ccnc4)(c4ccc(Cl)cc4Cl)O3)cc2)CC1	MIC	ATCC 10231		5 µg/mL
O[C@H](c1ccc(Cl)cc1)[C@](O)(Cn1cncn1)c1ccc(Cl)cc1	MIC	KE-2		50 µg/mL
CCCCN(Cc1cn(Cc2cccc(Br)c2)nn1)CC(O)(Cn1cncn1)c1ccc(F)cc1F	MIC80	Y0109		1 µg/mL
C[C@@](O)(c1ccc(F)cc1)[C@](O)(Cn1cncn1)c1ccc(Cl)cc1Cl	MIC	KE-2		100 µg/mL
O=S(=O)(Nc1ccc2c(c1)Sc1ccccc1O2)c1c(F)c(F)c(F)c(F)c1F	MIC	C316		0.5 µg/mL
C[C@@](O)(c1ccccc1)[C@](O)(Cn1cncn1)c1ccc(Cl)cc1Cl	MIC	KE-2		50 µg/mL
COCCOCCOCCOCCOCCOCCNC(=O)[C@H]1[C@@H]2C[C@@H](O[C@@H]3O[C@H](C)[C@@H](O)[C@H](N)[C@@H]3O)/C=C/C=C/C=C/C=C/C=C/C=C/C=C/[C@H](C)[C@@H](O)[C@H](C)[C@H](C)OC(=O)C[C@H](O)C[C@H](O)[C@@H](O)CC[C@H](O)C[C@H](O)C[C@](O)(C[C@@H]1O)O2	MIC	Isolate 92-1341		3.03 µg/mL
O[C@H](c1ccc(F)cc1)[C@](O)(Cn1cncn1)c1ccc(Cl)cc1	MIC	KE-2		50 µg/mL
Nc1ccc(S(=O)(=O)Nc2ccc3c(c2)Sc2ccccc2O3)cc1	MIC	C316		16 µg/mL
CCCCCC(=O)O[C@H]1[C@H](OC(=O)CCCCC)[C@H](OCC23C4C=C(C(C)C)C2(C(=O)O)C(C=O)(C4)[C@@H]2CC[C@@H](C)[C@H]23)O[C@H](C)[C@H]1OC	MIC	1208		8 µg/mL
CCCCN(Cc1cn(Cc2ccc(Br)cc2)nn1)CC(O)(Cn1cncn1)c1ccc(F)cc1F	MIC80	Y0109		1 µg/mL
Clc1ccc(C(CCn2ccnc2)Oc2ccc(Cl)cc2Cl)cc1	MFC	20 strains		3.62 µg/mL
OC(Cn1cncn1)(Cn1cncn1)c1ccc(F)cc1F	MIC	2715		6.25 µg/mL
CC(C)[C@]1(C)CC[C@]2(C)C=CC(C)(C)C[C@H](OC(=O)c3ccccc3)C12	MIC	SC5314		>50 µg/mL
CC1C=C(c2cccc3ccccc23)C(=O)O1	MIC	ATCC 44859		62.5 µM
FC(F)(F)c1ccc(OC(CCn2ccnc2)c2ccccc2)cc1	MIC	20 strains		38.4 µg/mL
C[C@H]1[C@H](O)[C@@H](C)/C=C/C=C/C=C/C=C/C=C/C=C/C=C/[C@H](O[C@@H]2O[C@H](C)[C@@H](O)[C@H](N)[C@@H]2O)C[C@@H]2O[C@](O)(C[C@@H](O)C[C@@H](O)CC[C@H](O)[C@@H](O)C[C@@H](O)CC(=O)O[C@H]1C)C[C@H](O)[C@H]2C(=O)O	MIC	n. 1r	broth dilution	2 µM
C[C@H]1[C@H](O)[C@@H](C)/C=C/C=C/C=C/C=C/C=C/C=C/C=C/[C@H](O[C@@H]2O[C@H](C)[C@@H](O)[C@H](N)[C@@H]2O)C[C@@H]2O[C@](O)(C[C@@H](O)C[C@@H](O)CC[C@H](O)[C@@H](O)C[C@@H](O)CC(=O)O[C@H]1C)C[C@H](O)[C@H]2C(=O)O	MIC50	97 isolates		0.5 µg/mL
CCCCN(Cc1cn(Cc2ccc(F)cc2)nn1)CC(O)(Cn1cncn1)c1ccc(F)cc1F	MIC80	SC5314		<0.125 µg/mL
CC(=O)N1CCN(c2ccc(OC[C@H]3CO[C@](Cn4ccnc4)(c4ccc(Cl)cc4Cl)O3)cc2)CC1	MFC90	20 strains		32 µg/mL
CCCCCC[C@H]1OC(=O)CNC(=O)[C@@H]([C@H](C)O)NC(=O)[C@@H](CO)NC(=O)[C@H]([C@H](C)CC)NC(=O)[C@H](CC(C)C)NC(=O)[C@@H]1C	MIC			>100 µg/mL
Cc1ccc([C@@H](CCn2ccnc2)Oc2ccc(Cl)cc2Cl)cc1	MIC	20 strains		2.65 µg/mL
CC1C=C(c2ccc(F)cc2)C(=O)O1	MIC	ATCC 44859		>125 µM
CO[C@H]1C[C@@H]2CC[C@@H](C)[C@@](O)(O2)C(=O)C(=O)N2CCCC[C@H]2C(=O)O[C@H]([C@H](C)C[C@@H]2CC[C@@H](O)[C@H](OC)C2)CC(=O)[C@H](C)/C=C(\C)[C@@H](O)[C@@H](OC)C(=O)[C@H](C)C[C@H](C)/C=C/C=C/C=C/1C	MIC	ATCC11651		0.1 µg/mL
C=CCc1ccc(OC)c(OC)c1	MIC90	2643	turbidity	340 µg/mL
CC1=C[C@H](OCC(=O)c2ccc(O)cc2)[C@@H]2[C@](C)(CC[C@@]2(O)C(C)C)CC1O	EC90		broth dilution	>50 µg/mL
CCCCN(Cc1cn(Cc2ccccc2F)nn1)CC(O)(Cn1cncn1)c1ccc(F)cc1F	MIC80	SC5314		1 µg/mL
CC1=C2[C@@H](OC(=O)/C=C/c3ccccc3)[C@H](C(C)C)CC[C@]2(C)[C@@H](O)CC1=O	MFC	ATCC 10231		32 µg/mL
CCCCN(Cc1cn(Cc2cccc(Cl)c2)nn1)CC(O)(Cn1cncn1)c1ccc(F)cc1F	MIC80	SC5314		<0.125 µg/mL
CC[C@@](O)(c1ccc(F)cc1)[C@](O)(Cn1cncn1)c1ccc(Cl)cc1	MIC	KE-2		>100 µg/mL
CCC1C=C(c2cccc(Cl)c2)C(=O)O1	MIC	ATCC 44859		62.5 µM
CCCCN(Cc1cn(Cc2c(Cl)cccc2Cl)nn1)CC(O)(Cn1cncn1)c1ccc(F)cc1F	MIC80	SC5314		16 µg/mL
CC[C@@H]([C@H](C)O)n1ncn(-c2ccc(N3CCN(c4ccc(OC[C@@H]5CO[C@@](Cn6cncn6)(c6ccc(F)cc6F)C5)cc4)CC3)cc2)c1=O	Geometric mean MIC	55 strains (fluconazole-susceptible)		<0.003 µg/mL
Nc1ncccc1-c1cc(Cc2ccc(COc3ccccn3)cc2)no1	MIC90		broth dilution	<0.008 µg/mL
CC(C)[C@](C)(O)[C@](O)(Cn1cncn1)c1ccc(Cl)cc1Cl	MIC	KE-2		>100 µg/mL

5 of the rows above, restated:

Clc1ccc(C(CCn2ccnc2)Oc2ccc(Cl)cc2Cl)cc1 ; read-out: MFC ; strain: 20 strains ; value: 3.62 µg/mL
CC[C@@H]([C@H](C)O)n1ncn(-c2ccc(N3CCN(c4ccc(OC[C@@H]5CO[C@@](Cn6cncn6)(c6ccc(F)cc6F)C5)cc4)CC3)cc2)c1=O ; read-out: Geometric mean MIC ; strain: 55 strains (fluconazole-susceptible) ; value: <0.003 µg/mL
CC[C@@](O)(c1ccc(F)cc1)[C@](O)(Cn1cncn1)c1ccc(Cl)cc1 ; read-out: MIC ; strain: KE-2 ; value: >100 µg/mL
COc1ccc(C2=CC(C)OC2=O)cc1 ; read-out: MIC ; strain: ATCC 44859 ; value: >125 µM
CCCCN(Cc1cn(Cc2cccc(Br)c2)nn1)CC(O)(Cn1cncn1)c1ccc(F)cc1F ; read-out: MIC80 ; strain: Y0109 ; value: 1 µg/mL

Neighbouring rows are from separate reports. Blank or dashed fields: not listed here. ECn: concentration that inhibits the pathogen or its effect by n%.